Measured values from several laboratories, pooled; numbers as filed in NIAID ChemDB.

Common to all: tests in culture; organism: Bovine viral diarrhea virus; read-out: EC50

Lines come from different laboratories, so protocols vary. Two numbers with a dash give a range or band. ECn is the concentration giving n% inhibition of infection, replication or growth. An empty or dashed field is not shown.

structure | cells | strain | method | value
Cc1cccc(Cn2ccc3nc(-c4ccccc4)nc-3c2)c1 | MDBK | PE515 | cytopathic effect | 0.013 µg/mL
N=C(N)c1ncn([C@@H]2O[C@H](CO)[C@@H](O)[C@H]2O)n1 | - | - | - | 1–100 µM
CC1S/C(=N/N=C2\C(=O)Nc3ccc([N+](=O)[O-])cc32)N(c2ccc([N+](=O)[O-])cc2)C1=O | MDBK | - | cytopathic effect | >18 µg/mL
C[C@@]1(O)[C@H](O)[C@@H](COP(=O)(O)OP(=O)(O)OP(=O)(O)O)O[C@H]1n1ccc2c(N)ncnc21 | MDBK cells | - | neutral red | 0.3 µM
C[C@@]1(O)[C@H](O)[C@@H](CO)O[C@H]1n1cnc2c(N(N)CCO)ncnc21 | MDBK | NADL | virus yield | <25 µM
NC(=O)c1nccn([C@@H]2O[C@H](CO)[C@@H](O)[C@H]2O)c1=O | MDBK | - | plaque count | 20 µM
CC(=O)O[C@H]1C[C@H](n2cc(/C(Cl)=C\I)c(=O)[nH]c2=O)O[C@@H]1CO | MDBK | NADL | cytopathic effect | >100 µM
O=c1nc(NO)ccn1[C@@H]1O[C@H](CO)[C@@H](O)[C@H]1O | MDCK | - | virus yield | <2 µM
CC(=O)O[C@@H]1C[C@@H](CO)O[C@H]1n1cc(C#CI)c(=O)[nH]c1=O | MDBK | NADL | cytopathic effect | >100 µM
O=[N+]([O-])c1ccc2[nH]c(O)c(N=NC(=S)Nc3ccc(Br)cc3)c2c1 | MDBK | - | cytopathic effect | >17 µg/mL
Nc1nc(=O)n2ccn([C@H]3C[C@H](O)[C@@H](CO)O3)c2n1 | - | - | - | 21 µM
Nc1ncnc2c1ncn2[C@@H]1O[C@H](CO)[C@](O)(C(F)(F)F)[C@H]1O | - | - | - | ≥100 µM
CCCN(CCC)CCSc1nnc2c(n1)[nH]c1ccccc12 | MDBK | F78I | plaque count | 0.0004 µM
O=[N+]([O-])c1ccc2c(c1)c(N=NC(=S)Nc1ccccc1)c(O)n2CN1CCCCC1 | MDBK | - | cytopathic effect | >20 µg/mL
CONc1ncnc2c1ncn2[C@@H]1O[C@H](CO)[C@@H](O)[C@@]1(C)O | MDBK | NADL | virus yield | <25 µM
Brc1ccc(Cn2ccc3nc(CSc4ccccc4)nc-3c2)cc1 | MDBK | PE515 | cytopathic effect | 0.018 µg/mL
CC(=O)N[C@H](C(=O)N[C@@H](CCC(=O)O)C(=O)N[C@@H](CC(C)C)C(=O)N[C@@H](CCCCN)C(=O)N[C@@H](CCC(=O)O)C(=O)NC(CC(C)C)B1OC(C)(C)C(C)(C)O1)C(C)O.O=C(O)C(F)(F)F | MDBK | NADL | plaque count | >90 µM
CN(N)c1ncnc2c1ncn2[C@@H]1O[C@H](CO)[C@@H](O)[C@@]1(C)O | MDBK | NADL | replicon | 65 µM
c1ccc(-c2nc3ccn(CC4CCCCC4)cc-3n2)cc1 | MDBK | PE515 | cytopathic effect | 0.027 µg/mL
Nc1nc(=O)n2ccn([C@@H]3C[C@@H](O)[C@H](CO)O3)c2n1 | - | - | - | >100 µM
CC1S/C(=N/N=C2\C(=O)Nc3ccc([N+](=O)[O-])cc32)N(c2ccc(F)cc2)C1=O | MDBK | - | cytopathic effect | >3 µg/mL
Clc1ccc(Cn2ccc3nc(-c4ccccc4)nc-3c2)cc1 | MDBK | PE515 | cytopathic effect | 0.086 µg/mL
O=[N+]([O-])c1ccc2[nH]c(O)c(N=NC(=S)Nc3ccccc3)c2c1 | MDBK | - | cytopathic effect | >50 µg/mL
c1ccc(CCCCn2ccc3nc(-c4ccccc4)nc-3c2)cc1 | MDBK | PE515 | cytopathic effect | 0.009 µg/mL
Brc1ccc(Cn2ccc3nc(-c4ccccc4)nc-3c2)cc1 | MDBK | Marloie (type 1) | ELISA | 0.5 µM
Cc1ccc(NC(=S)N=Nc2c(O)n(CN3CCCCC3)c3ccc([N+](=O)[O-])cc23)cc1 | MDBK | - | cytopathic effect | >19 µg/mL
CON(C)c1ncnc2c1ncn2[C@@H]1O[C@H](CO)[C@@H](O)[C@@]1(C)O | MDBK | NADL | replicon | 9.5 µM
CC(CNc1ncnc2c1ncn2[C@@H]1O[C@H](CO)[C@@H](O)[C@@]1(C)O)c1ccccc1 | MDBK | NADL | virus yield | >100 µM
O=C1Nc2ccc([N+](=O)[O-])cc2/C1=N/N=C1/SCC(=O)N1C1CCCCC1 | MDBK | - | cytopathic effect | >3 µg/mL
Nc1nc(=O)n2ccn(C3O[C@H](CO)[C@@H](O)[C@H]3O)c2n1 | - | - | - | >100 µM
CC(=O)O[C@H]1C[C@H](n2cc(C#CI)c(=O)[nH]c2=O)O[C@@H]1CO | MDBK | NADL | cytopathic effect | >100 µM
Clc1ccc(Cn2ccc3nc(-c4ccccc4)nc-3c2)s1 | MDBK | PE515 | cytopathic effect | 0.014 µg/mL
CC(=O)O[C@@H]1C[C@@H](CO)O[C@H]1n1cc(/C(Br)=C\I)c(=O)[nH]c1=O | MDBK | NADL | cytopathic effect | >100 µM
O=c1nc(NO)ccn1[C@@H]1O[C@H](CO)[C@@H](O)[C@H]1O | MDBK | - | - | 5.4 µM
Brc1ccc(Cn2ccc3nc(-c4ccccc4)nc-3c2)cc1 | MDBK | PE515 | cytopathic effect | 0.165 µg/mL

Repeating the final 3 entries:

structure,cells,strain,method,value
CC(=O)O[C@@H]1C[C@@H](CO)O[C@H]1n1cc(/C(Br)=C\I)c(=O)[nH]c1=O,MDBK,NADL,cytopathic effect,>100 µM
O=c1nc(NO)ccn1[C@@H]1O[C@H](CO)[C@@H](O)[C@H]1O,MDBK,-,-,5.4 µM
Brc1ccc(Cn2ccc3nc(-c4ccccc4)nc-3c2)cc1,MDBK,PE515,cytopathic effect,0.165 µg/mL